Here are results for one compound from patent US20130096054A1, “LATENT HUMAN IMMUNODEFICIENCY VIRUS REACTIVIATION” (priority 2010, published 2013).

For the data set, the system named is latently HIV-1 infected CA5 T cells. On the procedure:
CA5 T cells were pretreated with increasing concentrations of dactinomycin (DM) (FIG. 11A), the DNA intercalator daunorubicin (DR) (FIG. 11B), or the transcription inhibitors DRB (FIG. 11 C) and α-amanitin (FIG. 11D) (concentrations indicated). The cells were then left unstimulated (white circles) or activated with a sub-optimal concentration of HRF (black circles). Reactivation levels were determined as the percentage of GFP-positive cells 24 hours after stimulation. Viability of the cells correlates with the size of the symbol (size range adjusted to 5-95%).
Infection levels in the cell cultures were monitored by flow cytometric analysis of EGFP expression. Flow cytometric analysis was performed on a GUAVA EasyCyte (Millipore; Billerica, Mass.), or a LSRII (Becton & Dickinson; Franklin Lakes, N.J.).
Bacteria from various sources were isolated on TSA II agar plates containing 5% sheep blood. Bacterial isolates were then grown in RPMI 1640 medium supplemented with 10% FBS. After two days of incubation at 37° C. bacteria were pelleted and resuspended in RPMI medium to an optical density (OD600) of 8, aliquoted and frozen at −80° C. […] HRF activity was determined by its ability to reactivate latent HIV-1 infection in CA5 cells. […]
Infection levels in the cell cultures were monitored by flow cytometric (FCM) analysis of GFP expression. […]

*1 amine or outer side, *2 acyl side, *3 side chain or, on linkers, in order; H or OH if unused. Where a SMILES comes first, the peptide text is derived from it. Bridges are numbered along the chain shown (N, C = ends). Roman numbers before positions name the chains, in order. [ ]: non-standard residue; d: D form. Actinocin(9to1) = Cc1c2oc3c(C)ccc(C(=O)[*:1])c3nc-2c(C(=O)[*:2])c(N)c1=O; NMeV = CN[C@H](C(=O)O)C(C)C; Sar = CNCC(=O)O

Consider `Cc1c2oc3c(C)ccc(C(=O)N[C@@H]4C(=O)N[C@H](C(C)C)C(=O)N5CCC[C@H]5C(=O)N(C)CC(=O)N(C)[C@@H](C(C)C)C(=O)O[C@@H]4C)c3nc-2c(C(=O)N[C@@H]2C(=O)N[C@H](C(C)C)C(=O)N3CCC[C@H]3C(=O)N(C)CC(=O)N(C)[C@@H](C(C)C)C(=O)O[C@@H]2C)c(N)c1=O` [dactinomycin] (I: T[dV]P[Sar][NMeV] / II: T[dV]P[Sar][NMeV]; ester I:1-I:C, II:1-II:C; linker I:N-II:N via Actinocin(9to1)), for which the optimal pretreatment time (before activator addition) turned out to be 18 h. Further, the “time of maximum reactivation effects after stimulation” value (dactinomycin pretreatment) turned out to be 48 h.
